Data: the supplement of paper PMC9931576
Human monoclonal antibodies against the spike receptor-binding domain (heavy:light variable regions). IC50 against pseudoviruses bearing the spike of naturally observed variants; lower = stronger; >10 µg/ml means not reached at the top dose. No active / inactive call. The stated detection limit is 0.0005 µg/ml; values near or below 0.001 µg/ml lie at the floor of the assay.

What was measured:
Assay in all cases: pseudovirus neutralization IC50; higher = weaker neutralization
[1] = target: SARS-CoV-2 Omicron BA.1 spike pseudovirus
Experimental: (§1)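 Single-round VSV luciferase pseudovirus mixed with antibody dilutions for 1 h and put on Huh-7 cells for about a day; IC50 from the dose curve.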

[2] = target: SARS-CoV-2 Omicron BA.2 spike pseudovirus
Experimental: as §1

[3] = target: SARS-CoV-2 Omicron BA.2.75 spike pseudovirus
Experimental: as §1

[4] = target: SARS-CoV-2 Omicron BA.5 spike pseudovirus
Experimental: as §1

[5] = target: SARS-CoV-2 Omicron BQ.1.1 spike pseudovirus
Experimental: as §1

[6] = target: SARS-CoV-2 Omicron XBB spike pseudovirus
Experimental: as §1

[7] = target: SARS-CoV-2 early D614G spike pseudovirus
Experimental: as §1

Measured: pseudovirus neutralization IC50

B1: BD55-6466 (protein)
chain 1: EVHVVESGGGLVQPGRSLRLTCTGAGFTFADSALGWFRQAPGKGLEWIGFIRNKAYDGTTEYAASVKGRFTISRDDSKSVAYLQMNSLKPEDTAFYYCARDAFSSSWYGAGWFDPWGQGTLVTVSS
chain 2: DIVMTQSPDSLAVSLGERATINCKSSQSVLYSAGNRNYLAWYQQKPGQPPKVLLYWASTRESGVPDRFSGSGSGTDFTLTISSLQAEDVAIYYCQQYYSNPLTFGGGTKVEIK
1.66 µg/mL: [7]
8.44 µg/mL: [1]
> 10 µg/mL: all other assays above

B2: BD55-6467 (protein)
chain 1: EVQLVESGGGLVQPGGSLRLSCAASGFTFSTFPMHWVRQAPGKGLEYVSYISSDGGSTHYANSVKGRFTISRDNSKNTLFLQMGSLRAEDMAVYYCARDLDYDAWRGSGMDVWGQGTTVTVSS
chain 2: QSVLTQPPSVSGAPGQRVTISCTGSSSNIGAGYDIHWYQQLPGTAPKLLIYGNNNRPSGVPDRFSGSKSGTSASLAITGLQAEDEADYYCQSYDSSLSGHVVFGGGTKLTVL
4.07 µg/mL: [7]
> 10 µg/mL: all other assays above

B3: BD55-6475 (protein)
chain 1: QVQLVESGGGVVQSGRSLRLSCEASGFIFGDHGMHWVRQAPGKGLEWVAVIWYDGSKKFYTDSVKGRFTISRDTSKSTLYLQMNSLGAEDTAVYFCARDTWGTMVRGNNFYYGMDVWGQGTTVIVSS
chain 2: DIQMTQSPSSLSASVGDRVAITCRASQSIGNYLNWYQLKPGKSPKLLIYLTSNLQSGVPSRFSGSGSGTDYTLTINSLQPEDFATYYCQQSDSVPITFGQGTRLEIK
> 10 µg/mL: all assays above

B4: BD55-6477 (protein)
chain 1: QVQLVQSGAEVMKPGSSVKVSCKASGGIFSTYTFTWVRQAPGQGLEWMGKITPILDLALYSQNFQGRVTITADKSTSTTYMELSSLRSDDTAIYYCARIHDSYFDPWGQGTLVTVSS
chain 2: QSALTQPPSASGSLGQSVTISCTGTSNDVGGYNYVSWYQQHPGKAPKLIIYEVVKRPSGVPDRFSGSKSGNTASLTVSGLQAEDEADYYCSSYAGSPYVFGTGTKVSVL
3.13 µg/mL: [7]
0.0813 µg/mL: [1]
> 10 µg/mL: all other assays above

B5: BD55-6480 (protein)
chain 1: QVQLQESGPGLVKPSETLSLTCTVSGDSINSDIYYWGWVRQPPGKGLAWIGLINYRGSTDYSPSLKSRVTIAVDTSKNQFSLKLSSVTAADTAVYFCARGTHTYPHQSHNYYYYNGMDVWGQGTTVTVSS
chain 2: DIQMTQSPSSLSASVGDRVTITCRASQTITNYLSWYQLKPGKAPKLLIYAASTLQSGVPSRFSGSGSGTDFTLTITSLEPEDFATYSCQQSYTTPFTFGPGTKVDIK
> 10 µg/mL: all assays above

B6: BD55-6482 (protein)
chain 1: QVQMVQSGAEVKKPGASVKVSCQAYGYTFNSYDINWVRQATGQGLEWIGWMSPKSGQTGFAHKFQGRVNMTSDTSISTVYMELSSLGSDDTAVYFCARDAYGSNYYYYTMDVWGQGTTVTVSS
chain 2: DIQMTQSPSSLSASVGDRVTISCRASQSITYHLNWYQQKPGKAPKFLIHAASSLQSGVPSRFSGSGSGTDFTLTINSLQPEDFATYYCQQSYSFPSTFGGGTKVEI
> 10 µg/mL: all assays above

B7: BD55-6485 (protein)
chain 1: QVQLQESGSRLVKPSQTLSLTCTVSGDSISNSGYSWSWIRQPPGGGLEWIGYIYHDGSPFYNAPLRGRVTISMDRSKDQFSLRLTSATVADTAVYFCARETSTSGFYYFDFWGQGTLVTVSS
chain 2: DIQMTQSPSSLSASVGDRVTITCRASQSINMYLNWYQVKPGKAPKFLLYATSNLPSGVPSRFSGSGSETEFTLTISSLQPEDFATYFCQQSYSTPYTFGQGTKLEIK
> 10 µg/mL: all assays above

B8: BD55-6493 (protein)
chain 1: QLQLQESGPGLVKPSGTLSLTCSVTGGSVSSTSYSWAWIRQPPGKGLEWIGTINYSGTTSYNPSLKSRLTMSVDSSKNQFSLKLNSVAAADTAVYFCARQTGDPEFDHWGQGSLVAVSS
chain 2: DIQMTQSPSTLSASVGDRVTITCRASQSISRWLAWYQQHPGKAPNLLIYKASILENGVPSRFSGSGSGTEFTLTISSLQPDDFATYYCQQYSTNFVTFGQGTKVEIK
1.91 µg/mL: [7]
> 10 µg/mL: all other assays above

B9: BD55-6495 (protein)
chain 1: EVQLVESGGGLVQPGGALRLTCAASGFSFSRFWMNWVRQAPGKGLEWVANIKEDGNEKNYVDSVKGRFTIFRDNAEKSLFLQMESLRGDDTAVYYCARGYRDVVVAAPIPPEAFDIWGQGTTVTVSS
chain 2: SYELTQPPSVSVSPGQTARITCSGEALPRQNAYWYQQKPGQAPVLVIYKDTERPSGIPERFSGSSSGTKVTLTIRGVQAEDEADYYCQSADSSGTSYVFGPGTKVTVL
4.11 µg/mL: [7]
> 10 µg/mL: all other assays above

B10: BD55-6503 (protein)
chain 1: EVQLLGSGGGLVQPGGSLTLSCAASGFTFSSYTMTWFRQGPGKGLAWVSSISRSGGGAFHADAVKGRFTISRDNSKSTLYLQMNSLRVEDTAVYYCAKDFGDSVGEYFDYWGQGILVTVSS
chain 2: DIVMTQSPDSLAVSLGERATINCKSSQSILSSSKNQHYLAWYQQKPGQPPRLLIYWASTRASGVPDRFSGSGSGTDFTLTISSLQAEDAAVYYCQQYYVTPALTFGGGTKVEIK
> 10 µg/mL: all assays above

B11: BD55-6511 (protein)
chain 1: VQLVQSGAELRKPGESLRISCQGSGYRFSNNWITWVRQVPGKGLEWMGRMDPTDSYAKYSPSFQGHVTMSADTSISTAYLQWSSLKASDTATYYCATQLCGGDCPIESWGPGTLVTVSS
chain 2: DIQMTQSPSSVSASVGDRVTITCRASPGIRHYVAWFQQKPGKAPKSLIYAASSLHSGVPFRFSGSGSGTDFTLTINSLQPEDFATYYCQQYDTNPPTFGPGTKVEVK
> 10 µg/mL: all assays above

B12: BD55-6514 (protein)
chain 1: EVQLVESGGGLVQPGRSLRLSCAASGFTFDDYAMHWVRQAPGKGLEWVAGISWNSGDIAYADSVKGRFTISRDNAKNSLYLQMNSLRAEDTALYYCVKDPLGEFLYFFDYWGQGALVTVSS
chain 2: EIVMTQSPATLSVSPGERATLSCRASQSINTNLAWYQQKPGQAPRLLIYGGSSRATGVPARFSGSGSGTEFTLTISSLQSEDFAIYYCQHYNNWPLSYTFGQGTKLQIK
0.289 µg/mL: [7]
> 10 µg/mL: all other assays above
